Anti-infective test results gathered from many reports (values: NIAID ChemDB through PubChem).

All rows: target-level tests; organism: Hepatitis C virus; target: Nonstructural protein 3 protease

Rows are shuffled and stem from different studies.

compound	strain	read by	endpoint	dose	value
CCCC(NC(=O)[C@@H]1C2CCC(C2)N1C(=O)[C@@H](NC(=O)OC(C)(C)C)C1CCCCC1)C(=O)C(=O)NCC(=O)N[C@@H](C(=O)N(C)C)c1ccccc1			Ki		0.09 µM
CC[C@@H]1C(=O)N(C(=O)C2CC2)[C@H]2CCN(C(=O)[C@@H](NC(=O)OC(C)(C)C)C(C)C)[C@H]12			IC50		8.9 µM
CCCC(NC(=O)[C@@H]1C2CCCC2CN1C(=O)[C@@H](NC(=O)[C@@H](NC(=O)c1cnccn1)C1CCCCC1)C(C)(C)C)C(=O)C(=O)N[C@@H](C)CC			Ki		0.136 µM
CC(C)[C@H](NC(=O)OC(C)(C)C)C(=O)N1CC[C@H]2[C@H]1C(C1CCCC1)C(=O)N2S(C)(=O)=O			IC50		31 µM
O=C(O)c1cc(O)c(O)c(O)c1		fluorescence	IC50		382.4 µM
CCCCCCCCCCCC1=C(O)C(=O)C=C(O)C1=O			inhibition	100 µM	96.6%
CCC[C@H](NC(=O)[C@@H]1[C@H]2CCC[C@H]2CN1C(=O)[C@@H](NC(=O)[C@@H](NC(=O)c1cnccn1)C1CCCCC1)C(C)(C)C)C(=O)C(=O)N[C@@H](C)Cc1ccccc1			Ki		0.046 µM
CC(C)(C)[C@H](NC(=O)[C@@H](NC(=O)c1cnccn1)C1CCCCC1)C(=O)N1CC2CCCC2[C@H]1C(=O)NC(CC(F)F)C(=O)C(=O)NC1CC1			Ki		0.025 µM
O=C(CSc1nc(-c2cccs2)c2c(n1)-c1ccccc1CC2)NN1C(=O)c2ccccc2C1=O	NS3-4A	PCR	IC90		0.301 µM
CC(C)[C@H](NC(=O)OC(C)(C)C)C(=O)N1CC[C@H]2[C@H]1C(C1CCC1)C(=O)N2C(=O)C1CC1			IC50		0.51 µM
O=C(O)CSc1nc(-c2cccs2)c2c(n1)-c1ccccc1CC2	NS3-4A	PCR	IC90		0.501 µM
CC(C)[C@H](NC(=O)OC(C)(C)C)C(=O)N1CC[C@H]2[C@H]1C(C)(C)C(=O)N2C(=O)C1CC1			IC50		3 µM
O=C(O)C1=CC(OC(=O)c2cc(O)c(O)c(O)c2)C(O)[C@H](O)C1		fluorescence	IC50		214.7 µM
CCCCCCCCCCCCCC1=C(O)C(=O)C=C(OC)C1=O			inhibition	100 µM	77.9%
CCC[C@H](NC(=O)[C@@H]1C2CCCC2CN1C(=O)[C@@H](NC(=O)[C@@H](NC(=O)c1cnccn1)C(C)(C)C)C(C)(C)C)C(=O)C(=O)NC1CC1			Ki		0.17 µM
CC(C)[C@H](NC(=O)OC(C)(C)C)C(=O)N1CC[C@H]2[C@H]1C(C)(C)C(=O)N2S(C)(=O)=O			IC50		34 µM
CC1O[C@@H](Oc2c(-c3ccc(O)c(O)c3)oc3cc(O)cc(O)c3c2=O)[C@H](O)[C@H](O)[C@H]1C			inhibition	100 µM	45.3%
CCC[C@H](NC(=O)[C@@H]1C2CCCC2CN1C(=O)[C@@H](NC(=O)[C@@H](NC(=O)c1cnccn1)C1CCCCC1)C(C)(C)C)C(=O)C(=O)N[C@@H](C)C(C)C			Ki		0.312 µM
CC[C@@H]1C(=O)N(S(C)(=O)=O)[C@H]2CCN(C(=O)[C@@H](NC(=O)OC(C)(C)C)C(C)C)[C@H]12			IC50		30 µM
O=C(O)C[C@@H]1C(=O)O[C@H]2[C@@H]3OC(=O)c4cc(O)c(O)c(O)c4-c4c(cc(O)c(O)c4O)C(=O)OC[C@H]2O[C@@H](OC(=O)c2cc(O)c(O)c(O)c2)[C@@H]3OC(=O)c2cc(O)c(O)c3c2[C@H]1[C@H](O)C(=O)O3		fluorescence	IC50		5.2 µM
CCCC(NC(=O)[C@@H]1[C@H]2CCC[C@H]2CN1C(=O)[C@@H](NC(=O)[C@@H](NC(=O)c1cnccn1)C(C)(C)C)C(C)(C)C)C(=O)C(=O)NC1CC1			Ki		0.59 µM
O=c1oc2c(O)c(O)cc3c(=O)oc4c(O)c(O)cc1c4c23		fluorescence	IC50		56.3 µM
CC(C)[C@H](NC(=O)OC(C)(C)C)C(=O)N1CC[C@H]2[C@H]1C(C)(C)C(=O)N2S(C)(=O)=O			IC50		34 µM
COc1ccc2c(O[C@@H]3C[C@H]4C(=O)C[C@]5(P(=O)(O)Cc6c(F)cccc6F)C[C@H]5CCCCCCC[C@H](CC(=O)OC5CCCC5)C(=O)N4C3)cc(-c3csc(NC(C)C)n3)nc2c1Cl	Con1 (gt 1b)	fluorescence	Ki		0.000089 µM
CC(C)[C@H](NC(=O)OC(C)(C)C)C(=O)N1CC[C@H]2[C@H]1C1(CCCC1)C(=O)N2C(=O)C1CC1			IC50		2.5 µM

A second listing of 2 rows from above:

compound,strain,read by,endpoint,dose,value
O=C(O)C1=CC(OC(=O)c2cc(O)c(O)c(O)c2)C(O)[C@H](O)C1,,fluorescence,IC50,,214.7 µM
O=c1oc2c(O)c(O)cc3c(=O)oc4c(O)c(O)cc1c4c23,,fluorescence,IC50,,56.3 µM

An empty or dashed field is not shown. ICn is the concentration giving n% inhibition. Inhibition is in % at the dose shown (toxicity tests: loss of growth or viability).